Laboratory results published in PMC9604285, “Rat Group IIA Secreted Phospholipase A2 Binds to Cytochrome c Oxidase and Inhibits Its Activity: A Possible Episode in the Development of Alzheimer’s Disease” (International Journal of Molecular Sciences, 2022).

Target: subunit II of cytochrome c oxidase (CCOX-II) (porcine (endogenous in cerebral cortex)) (UniProt P50667)
Assay: cross-linking

Work on ammodytoxin (Atx), unlabelled (enzyme) yielded an IC50 of 6 nM.
